Compound potency records, mixed from different reports. Data source: NIAID ChemDB in PubChem.

Shared fields: growth or infection tests; species: HIV-1

ECn: concentration that inhibits the pathogen or its effect by n%. An empty or dashed field is not shown. Neighbouring rows are from separate reports.

structure	cell line	method	strain	endpoint	changes	setting	result
CCCCCCCCCCC(=O)O[C@@H]1[C@@H](C)[C@@]2(O)[C@@H](C=C(CO)C[C@]3(O)C(=O)C(C)=C[C@@H]23)[C@@H]2C(C)(C)[C@]12OC(=O)CCCCCCCCCC	C8166	p24 / ELISA	IIIB	EC50			16.51 µM
COC(=O)[C@@H](NC(=O)[C@@H](NC(=O)CNC[C@H](O)[C@H](Cc1ccccc1)NC(=O)[C@H](C)NC(=O)[C@H](C)NC(=O)OCc1ccccc1)C(C)C)C(C)C	MOLT-4	virus yield	IIIB	EC50			2.1 µM
CC(=O)Nc1ccc(S(=O)(=O)N(CC(C)C)C[C@@H](O)[C@H](CCc2ccccc2)NC(=O)Cn2c(=O)oc3ccccc32)cc1				EC50			0.8 µM
O=C(Nc1ccc(F)cc1)c1ccccc1SSc1ccccc1C(=O)Nc1ccc(F)cc1	CEM	XTT		EC50			4.5 µM
Nc1ncnc2c1ncn2[C@@H]1O[C@H](COC2(c3ccccc3)c3ccccc3Oc3ccccc32)[C@@H](OC2(c3ccccc3)c3ccccc3Oc3ccccc32)[C@H]1OC1CCCCO1	H9	RT activity	RF	EC50			0.093 µM
C/C=C/C(=O)O[C@@H]1[C@@H](C)[C@@]2(O)[C@@H](C=C(CO)C[C@]3(O)C(=O)C(C)=C[C@@H]23)[C@@H]2C(C)(C)[C@]12O	C8166	p24 / ELISA	IIIB	EC50			>200 µM
Nc1ncnc2c1ncn2[C@H]1C[C@H](N)[C@@H](CO)O1	MT-4	cytopathic effect / trypan blue	IIIB	EC50			>100 µg/mL
O=c1[nH]cnc2c1ncn2C[C@H]1C[C@H]1CO	PBMC		LAV	EC50			>100 µM
O=C(c1ccccc1)c1ccc2c(c1)oc(=O)n2CCN1CCOCC1	CEM	syncytia	IIIB	EC50			>8 µg/mL
CCN(CC)c1ccc(/C=N/NC(=O)c2ccncc2)c(O)c1	TZM-bl	fluorescence	92US657	EC50			1.3 µM
O=C(c1cccc([N+](=O)[O-])c1)c1ccc2[nH]c(=O)sc2c1	CEM	syncytia	IIIB	EC50			>1.6 µg/mL
Nc1ncnc2c1ncn2[C@H]1C[C@@H](N)[C@@H](CO)O1	MT-4	cytopathic effect / trypan blue	IIIB	EC50			>500 µg/mL
CN=C1Cc2cc(S(=O)(=O)N(CC(C)C)C[C@@H](O)[C@H](Cc3ccccc3)NC(=O)OC3CO[C@H]4OC[C@H](OCc5ccccc5)[C@@H]34)ccc2N1			IIIB	EC50			0.0008 µM
Cc1cccc(NC(=O)c2ccccc2SSc2ccccc2C(=O)Nc2cccc(C)c2)c1	CEM	XTT		EC50			20 µM
Cc1cccc(O)c1CNC(=O)[C@H]1N(C(=O)[C@@H](O)[C@H](CCc2ccccc2)NC(=O)c2cccc(O)c2C)CSC1(C)C				EC50			0.12 µM
CC(C)CC(NC(=O)c1ccccc1SSc1ccccc1C(=O)NC(CC(C)C)C(=O)O)C(=O)O	CEM	XTT		EC50			8.9 µM
COc1c(Cl)ccc2c1[C@@](C#Cc1ccccc1)(C(F)(F)F)NC(=O)N2	MT-4	p24		EC50	RT-K103N		<0.113 µM
Cc1cc(CO)ccc1CNC(=O)[C@H]1N(C(=O)[C@@H](O)[C@H](CCc2ccccc2)NC(=O)O[C@H]2CO[C@H]3OCC[C@H]32)CSC1(C)C				EC50			0.23 µM
Cc1cn(C[C@H]2C[C@H]2[C@H](O)CO)c(=O)[nH]c1=O	PBMC		LAV	EC50			56.1 µM
Cc1ccnc2c1NC(=O)c1cccnc1N2C1CC1	A72	GFP / flow cytometry	IIIB	EC50			0.014 µg/mL
CCN(CC)c1ccc(/C=N/NC(=O)c2ccc(O)cc2O)c(O)c1	TZM-bl	fluorescence	92US657	EC50			0.9 µM
Cc1cn(-c2ccc(C(=O)NC(C)(C)CNC[C@H](O)[C@@]34CC[C@]5(C)[C@H](CC[C@@H]6[C@@]7(C)CC[C@H](OC(=O)[C@H]8C[C@@H](C(=O)O)C8(C)C)C(C)(C)[C@@H]7CC[C@]65C)C3=C(C(C)C)C(=O)C4)cc2)cn1	MT-2	p24 / ELISA	92HT599	EC50			<1 µM
COc1ccc(S(=O)(=O)Nc2nnc(C(CC(C)C)NS(=O)(=O)c3ccc(C)cc3)s2)cc1	MT-4	MTT	IIIB	EC50			9.25 µM
[2H]C(CCCN)(NC(=O)c1ccc(Cl)cc1)C(=O)NC[C@H](O)[C@@]12CC[C@]3(C)[C@H](CC[C@@H]4[C@@]5(C)CC[C@H](OC(=O)[C@H]6C[C@@H](C(=O)O)C6(C)C)C(C)(C)[C@@H]5CC[C@]43C)C1=C(C(C)C)C(=O)C2	MT-2	p24 / ELISA	92HT599	EC50			<1 µM
CC(=O)n1c(=O)sc2cc(C(=O)c3cccc(F)c3)ccc21	CEM	syncytia	IIIB	EC50			4.6 µg/mL
COC(=O)[C@@H](NC(=O)[C@@H](NC(=O)[C@@H](C)NC[C@H](O)[C@H](Cc1ccccc1)NC(=O)[C@H](C)NC(=O)[C@H](C)NC(=O)OCc1ccccc1)C(C)C)C(C)C	MOLT-4	virus yield	IIIB	EC50			0.87 µM
CC(=O)Nc1ccc(S(=O)(=O)N(CC(C)C)C[C@@H](O)[C@H](CCc2ccccc2)NC(=O)Cc2c[nH]c3ccccc23)cc1				EC50			1 µM
Nc1nc(N)c2ncn([C@H]3C=C[C@@H](CO)C3)c2n1	MT-2	cytopathic effect / XTT	IIIB	EC50			2.9 µg/mL
CC1=C[C@H]2[C@@]3(O)[C@H](C)[C@@H](OC(=O)/C=C/c4ccccc4)[C@]4(O)[C@H]([C@@H]3C=C(COC(=O)/C=C/c3ccccc3)C[C@]2(O)C1=O)C4(C)C	C8166	p24 / ELISA	IIIB	EC50			27.01 µM
O=C1Nc2ccc(Cl)c3c2[C@](C(F)(F)F)(C=C(c2ccccc2)O3)N1	MT-4	p24		EC50	RT-K103N		<0.046 µM
CC[C@@H](C)[C@@H](NC(=O)c1ccccc1SSc1ccccc1C(=O)N[C@@H](C(=O)O)[C@H](C)CC)C(=O)O	CEM	XTT		EC50			6.3 µM
CC(C)C1=C2[C@H]3CC[C@@H]4[C@@]5(C)CC[C@H](OC(=O)[C@H]6C[C@@H](C(=O)O)C6(C)C)C(C)(C)[C@@H]5CC[C@@]4(C)[C@]3(C)CC[C@@]2(CC(=O)NC2(CNC(=O)c3ccc(Cl)cc3)CCCCC2)CC1=O	MT-2	p24 / ELISA	92HT599	EC50			<1 µM
CC(C)CC(NS(=O)(=O)c1ccc(Cl)cc1)c1nnc(NS(=O)(=O)c2ccc(Cl)cc2)s1	MT-4	MTT	IIIB	EC50			>59.93 µM
O=C1Nc2ccc(Cl)c(O)c2[C@@](C#CC2CC2)(C(F)(F)F)N1	MT-4	p24		EC90	RT-K103N		0.028 µM
C=CC(C)(/C=C\c1ccc(O)cc1)c1ccc(O)cc1.NC(=O)NO	Macrophage	p24	BaL	EC50			<0.00232 µM
Nc1ncnc2c1ncn2[C@@H]1O[C@H](CO)C[C@H]1N	MT-4	cytopathic effect / trypan blue	IIIB	EC50			>100 µg/mL
CC/C=C\C/C=C\C/C=C\C/C=C\C/C=C\CCCC(=O)OCC1=C[C@H]2[C@@H]3C(C)(C)[C@]3(OC(=O)CCC/C=C\C/C=C\C/C=C\C/C=C\C/C=C\CC)[C@H](OC(=O)CCC/C=C\C/C=C\C/C=C\C/C=C\C/C=C\CC)[C@@H](C)[C@]2(O)[C@@H]2C=C(C)C(=O)[C@@]2(O)C1	C8166	p24 / ELISA	IIIB	EC50			41.74 µM
CC1=C(/C=C/C(C)=C\C=C\C(C)=C\C(=O)O)C(C)(C)CCC1	ACH-2 (chronically infected) + ACH2	MTT / p24	IIIB	EC50		10 d, chronic infection	>0.1 µM
Cc1ccc(S(=O)(=O)Nc2nnc(C(C)NS(=O)(=O)c3ccc(Cl)cc3)s2)cc1	MT-4	MTT	IIIB	EC50			>60.53 µM
CC(C)C1=C2[C@H]3CC[C@@H]4[C@@]5(C)CC[C@H](OC(=O)[C@H]6C[C@@H](C(=O)O)C6(C)C)C(C)(C)[C@@H]5CC[C@@]4(C)[C@]3(C)CC[C@@]2([C@@H](O)CNCc2cccnc2N2CCOCC2)CC1=O	MT-2	p24 / ELISA	92HT599	EC50			<1 µM
Cc1cn(C[C@H]2C[C@H]2CO)c(=O)[nH]c1=O	PBMC		LAV	EC50			>100 µM
COc1ccc(S(=O)(=O)N(CC(C)C)C[C@@H](O)[C@H](Cc2ccccc2)NC(=O)O[C@H]2CO[C@H]3O[C@@H]4OCC[C@@H]4[C@H]32)cc1			LAI	EC50			0.0018 µM
O=c1ccn(C[C@H]2C[C@H]2[C@H](O)CO)c(=O)[nH]1	PBMC		LAV	EC50			>100 µM
Cc1cncc(CN(CCN(C)C)C(=O)C[C@@]23CC[C@]4(C)[C@H](CC[C@@H]5[C@@]6(C)CC[C@H](OC(=O)[C@H]7C[C@@H](C(=O)O)C7(C)C)C(C)(C)[C@@H]6CC[C@]54C)C2=C(C(C)C)C(=O)C3)n1	MT-2	p24 / ELISA	92HT599	EC50			<1 µM
Cn1c(=O)sc2cc(C(=O)c3ccccc3)ccc21	CEM	syncytia	IIIB	EC50			1.6 µg/mL
CC1=C[C@H]2[C@@]3(O)[C@H](C)[C@@H](O)[C@]4(OC(=O)CCCC[C@@H]5SC[C@@H]6NC(=O)N[C@@H]65)[C@H]([C@@H]3C=C(CO)C[C@]2(O)C1=O)C4(C)C	C8166	p24 / ELISA	IIIB	EC50			>200 µM
Cc1ccccc1CNC(=O)[C@H]1N(C(=O)[C@@H](O)[C@H](CCc2ccccc2)NC(=O)O[C@H]2CO[C@H]3OCC[C@H]32)CSC1(C)C				EC50			0.009 µM
CCCNC(=O)c1ccccc1SSc1ccccc1C(=O)NCCC	CEM	XTT		EC50			>19 µM
CC(=O)Nc1ccc(S(=O)(=O)N(CC(C)C)C[C@@H](O)[C@H](CCc2ccccc2)NC(=O)CN2C(=O)c3ccccc3C2=O)cc1				EC50			2 µM
CC[C@H](C)[C@H](NC(=O)c1ccccc1SSc1ccccc1C(=O)N[C@H](C(=O)O)[C@@H](C)CC)C(=O)O	CEM	XTT		EC50			5 µM
NC[C@H]1O[C@@H](n2cnc3c(N)ncnc32)C[C@@H]1N	MT-4	cytopathic effect / trypan blue	IIIB	EC50			>500 µg/mL
COC(CC(C)C(O)/C=C/C=C/CNC(=O)C(C)(C)C(O)\C(C)=C/C=C\C=C\Cc1cnc(C)o1)C1(O)C(C)C(=O)N(C)C12C(=O)OC2C	H9	RT activity	IIIB	EC50			5 µg/mL
CC(C)CC(NS(=O)(=O)c1ccc(Cl)cc1)c1nnc(NS(=O)(=O)c2ccc(Br)cc2)s1	MT-4	MTT	IIIB	EC50			>57.63 µM
Nc1nc2c(ncn2[C@H]2C=C[C@@H](CO)C2)c(=O)[nH]1	CEM	cytopathic effect / XTT	RF	EC50			0.66 µg/mL
O=C(Nc1ccc([N+](=O)[O-])cc1)c1ccccc1SSc1ccccc1C(=O)Nc1ccc([N+](=O)[O-])cc1	CEM	XTT		EC50			4 µM
CC(C)C1=C2[C@H]3CC[C@@H]4[C@@]5(C)CC[C@H](OC(=O)[C@H]6C[C@@H](C(=O)O)C6(C)C)C(C)(C)[C@@H]5CC[C@@]4(C)[C@]3(C)CC[C@@]2(CC(=O)NCc2ccc3c(c2)OCO3)CC1=O	MT-2	p24 / ELISA	92HT599	EC50			<1 µM
O=C1Nc2ccc(Cl)cc2[C@@](C#CC2CC2)(C(F)(F)F)N1	MT-4	p24		EC50	RT-K103N		<0.01 µM
Cc1cn([C@H]2C[C@H](N=[N+]=[N-])[C@@H](CO)O2)c(=O)[nH]c1=O	PBMC	RT activity	Ba-L (R5-tropic)	EC50			0.0066 µM
COc1nc(N)c(N=C[C@@H](O)[C@@H](O)[C@H](O)CO)c(=O)n1C	CEM	cytopathic effect / XTT		EC50			64 µM